Anti-infective test results gathered from many reports (values: NIAID ChemDB through PubChem).

Shared fields: tests in culture; agent: Mycobacterium tuberculosis

A number after MIC or MFC names an inhibition level or a share of isolates. Neighbouring rows are from separate reports. Inhibition is in % at the dose shown (toxicity tests: loss of growth or viability). An empty or dashed field is not shown. ECn is the concentration giving n% inhibition of infection, replication or growth. MIC bound comes from a single tested concentration.

structure,read-out,dose,setting,method,strain,changes,value
CNn1cc(C(=O)O)c(=O)c2cc(F)c(N3CCN(C)CC3)cc21,MIC50,,,,64 strains,,2 µg/mL
N#CC1=C([N+](=O)[O-])NC2OC[C@@H](OCc3ccc(OC(F)(F)F)cc3)CN12,MIC,,,broth dilution,F420-,,>100 µM
O=C(OCCCl)c1cnccn1,MIC90,,pH 6.0,resazurin,,Pyrazinamide-resistant,>536 µM
CC1COc2c(N3CCN(C)CC3)c(F)cc3c(=O)c(C(=O)O)cn1c23,MIC,,,,H37Rv,,1.25 µg/mL
CCOC(=O)NC(=S)c1ccc[nH]1,MIC bound,,,resazurin,H37Rv,,>6.25 µg/mL
O=C1CC(Nc2ccc(Oc3ccc(Cl)cc3)c(Cl)c2)C(=O)N1c1cccc2ccccc12,MIC,,,,H37Rv,,100 µg/mL
Cc1ccc2c(Cl)c(C)c(N3CCCCC3)nc2n1,inhibition,6.25 µg/mL,,BACTEC,H37Rv,,17%
CC(=O)OC[C@@]12[C@@H](OC(C)=O)CC3C[C@@H](C)[C@](C)(CCC4=CC(=O)OC4)CC3[C@H]1CCC[C@]21CO1,MIC,,,,H37Rv,,>128 µg/mL
Nc1ccc2c(Cl)cc(N3CCCCC3)nc2n1,EC50,,,BACTEC,H37Rv,,>6.25 µg/mL
Cc1ccc(-n2nnnc2SC(C)C)cc1C,MIC,,,,H37Rv,,125 µM
CO[C@H]1/C=C/O[C@@]2(C)Oc3c(C)c(O)c4c(O)c(c(/C=N/N5CCN(C)CC5)c(O)c4c3C2=O)NC(=O)/C(C)=C\C=C\[C@H](C)[C@H](O)[C@@H](C)[C@@H](O)[C@@H](C)[C@H](OC(C)=O)[C@@H]1C,MIC90,,,resazurin,H37Rv,,0.06 µM
O=C(CNc1ccccc1[N+](=O)[O-])Sc1nnc(-c2ccncc2)o1,MIC99,,,broth dilution / resazurin,H37Rv (ATCC 27294),,6.05 µg/mL
COc1cc(/C=C/C(=O)c2ccc(Nc3ccnc4cc(Cl)ccc34)cc2)cc(OC)c1OC,MIC bound,,,BACTEC,H37Rv,,>12.5 µg/mL
Cc1cc(C)c2c(=O)n(CC(=O)N3CCN(c4ccccc4)CC3)sc2n1,EC50,,,BACTEC,H37Rv,,<12.5 µg/mL
CCCSc1nnnn1-c1c(C)cc(C)cc1C,MIC,,,,H37Rv,,250 µM
CSC(=S)N/N=C(\C)c1cccc(C)n1,MIC,,,BACTEC,H37Rv,,64 µg/mL
O=C(Nc1nnc(-c2ccncc2)s1)C(=O)C(Cl)(Cl)Cl,MIC,,,visual reading,H37Rv,,>200 µM
Cc1c(-c2ccccc2)noc1-n1nnc2ccccc2c1=O,inhibition,12.5 µg/mL,,BACTEC,H37Rv,,0%
Cc1ccnc(NS(=O)(=O)c2ccc(NC(=S)Nc3ccc(C(=O)O)c(O)c3)cc2)n1,MIC90,,,broth dilution,H37Rv,,>12.5 µg/mL
CCSc1nnnn1-c1c(C)cc(C)cc1C,MIC,,,,H37Rv,,>1000 µM
Cc1cc(C)c2c(=O)n(CC(O)CN3CCN(c4ccccn4)CC3)sc2n1,EC50,,,BACTEC,H37Rv,,>12.5 µg/mL
CC(=O)OC[C@@]12[C@@H](OC(C)=O)C[C@@H](C)[C@](C)([C@@H]3CC4C=COC4O3)[C@H]1CCC[C@]21CO1,MIC,,,,H37Rv,,>128 µg/mL
O=C(CNc1ccccc1Cl)Sc1nnc(-c2ccncc2)o1,inhibition,0.164 µM,,BACTEC / radiometric,H37Rv (ATCC 27294),,12%
Cc1nc2c(-c3ccccc3)c3cc(Cl)ccc3nc2o1,inhibition,6.25 µg/mL,,,H37Rv,,0%
O=C(CNc1ccc([N+](=O)[O-])cc1)Sc1nnc(-c2ccncc2)o1,inhibition,0.0052 µM,,BACTEC / radiometric,H37Rv (ATCC 27294),,96%
Cc1c(C(=O)/C=C/c2ccccc2[N+](=O)[O-])[n+](=O)c2ccccc2n1[O-],MIC,,,,TAC-R,,1.6 µg/mL
Cc1cc(C)c2c(=O)n(CN3CCN(c4ccccc4)CC3)sc2n1,EC50,,,BACTEC,H37Rv,,>12.5 µg/mL
CC(=O)O[C@@]12C[C@@H](C)[C@@]3(O)[C@@H](C=C(CO)C[C@]4(O)C(=O)C(C)=C[C@@H]34)[C@@H]1C2(C)C,inhibition,6.25 µg/mL,,resazurin,H37Rv,,12%
CCNCC1CCN(c2c(F)cc3c(=O)c(C(=O)O)cn(CC)c3c2F)C1,MIC90,,,,64 strains,,2 µg/mL
CN(C)c1ccc(-c2cc(C(=O)O)c3cc(I)ccc3n2)c(Cl)c1,MIC bound,,,BACTEC,H37Rv,,>12.5 µg/mL
[C-]#[N+][C@]12C(=C)C(C)(C)c3[nH]c4cccc5c4c3[C@]1(O)[C@H](CC[C@]2(C)C=C)C5(C)C,MIC90,,,resazurin,H37Rv,,>100 µM
COc1ccc(-c2cc(=O)c3c(O)c(OC)c(O)c(OC)c3o2)cc1,MIC,,,,H37Ra,,100 µg/mL
Cc1cc(C)c2c(OCCCCN3CCN(c4ccccn4)CC3)nsc2n1,inhibition,12.5 µg/mL,,BACTEC,H37Rv,,12%
COc1ccc(N2C(=O)CC(Nc3ccc(Oc4ccc(Cl)cc4)c(Cl)c3)C2=O)cc1,MIC,,,,H37Rv,,100 µg/mL
CCCCSc1nnnn1-c1ccc(C)c(C)c1,MIC,,,,H37Rv,,30 µM
O=C1CC(Nc2ccc(Oc3ccc(Cl)cc3)c(Cl)c2)C(=O)N1Cc1ccccc1,MIC,,,,H37Rv,,100 µg/mL
CCN(CC)COc1ccc(N(c2cc(C)nc3cc(Cl)ccc23)S(=O)[O-])cc1,MIC,,,agar,H37Rv,,>50 µg/mL
Cc1cc(C)c2c(OCCCCN3CCN(c4ncccn4)CC3)nsc2n1,EC50,,,BACTEC,H37Rv,,>12.5 µg/mL
CCOC(=O)NC(=O)c1ccsc1NC(=O)c1nc2ccccc2s1,MIC99,,,turbidity,,,0.19 µg/mL
[C-]#[N+][C@@]12[C@@](C)(C=C)[C@H](Cl)C[C@@H]3C(C)(C)c4cccc5[nH]c(c(c45)[C@]31O)C(C)(C)[C@]21CO1,MIC90,,,resazurin,H37Rv,,2 µM
Cc1cc2nc(CC(=O)c3ccncc3)c(=O)[nH]c2cc1C,MIC bound,,,BACTEC,H37Rv,,>12.5 µg/mL
O=C(CNc1cccc([N+](=O)[O-])c1)Sc1nnc(-c2ccncc2)o1,inhibition,0.0132 µM,,BACTEC / radiometric,H37Rv (ATCC 27294),,86%
CCOC(=O)N1CCN(c2ccc3cc(-c4ccccc4)c(=O)[nH]c3n2)CC1,inhibition,6.25 µg/mL,,BACTEC,H37Rv,,16%
CCOc1ccc(N2C(=O)CC(Nc3ccc(Oc4ccc(Cl)cc4)c(Cl)c3)C2=O)cc1,MIC,,,,H37Rv,,100 µg/mL
COc1ccccc1N1CCN(CCCCN2C(=O)c3c(C)cc(C)nc3S2(=O)=O)CC1,EC50,,,BACTEC,H37Rv,,>12.5 µg/mL
N#Cc1ccc(Nc2nc(Oc3cccc4cccnc34)nc(N3CCN(C(c4ccccc4)c4ccccc4)CC3)n2)cc1C(F)(F)F,MIC97,,,agar,H37Rv,,100 µg/mL
CC1=CC(=N/Br)/C=CC/1=N\Br,inhibition,12.5 µg/mL,,BACTEC,H37Rv,,5%
CCC1CN(c2c(F)cc3c(=O)c(C(=O)O)cn(C4CC4)c3c2OC)CCN1,MIC,,,,Isolate TN1865,,0.3 µg/mL
Nc1c(-c2ccccc2)c2cc([N+](=O)[O-])ccc2[nH]c1=O,EC50,,,,H37Rv,,>6.25 µg/mL
COc1cc(Cc2cnc(N)nc2N)cc(OC)c1OC,MIC,,,,H37Ra,,256 µg/mL
CC(=O)Nc1c(OC(C)=O)nc2ccc(Cl)cc2c1-c1ccccc1,MIC,,,,H37Rv,,>6.25 µg/mL
CCN(Cc1ccc(CN(CC)C(=O)c2c(-c3ccccc3)noc2C)cc1)C(=O)c1c(-c2ccccc2)noc1C,MIC bound,,,resazurin,H37Rv,,>6.25 µg/mL
Cc1c(N)c(=O)[nH]c2ccccc12,EC50,,,,H37Rv,,>6.25 µg/mL
O=C(Nc1ccc(C(=O)O)c(O)c1)NC1CCCCC1,inhibition,12.5 µg/mL,,resazurin,H37Rv,,90%
CN1CCN(c2cc3c(cc2F)c(=O)c(C(=O)O)cn3-c2ccc(F)cc2)CC1,MIC50,,,,64 strains,,4 µg/mL
Cc1ccc2c(O)c(C)c(=O)[nH]c2n1,EC50,,,BACTEC,H37Rv,,>6.25 µg/mL
CC(Cl)CC(=O)C(=O)Nc1nnc(-c2ccncc2)s1,MIC,,,visual reading,H37Rv,,>200 µM
C/C(=N/NC(=S)N1CCC(C)CC1)c1nccnc1C,MIC,,,,PZA-R,,1.6 µg/mL
Cc1c(-[n+]2ccccc2)c(=O)[nH]c2ccccc12,MIC,,,,H37Rv,,>6.25 µg/mL
Cc1ccc2c(N3CCOCC3)c(C)c(N3CCCCC3)nc2n1,EC50,,,BACTEC,H37Rv,,>6.25 µg/mL
O=C(CNc1ccccn1)Sc1nnc(-c2ccncc2)o1,inhibition,0.0089 µM,,BACTEC / radiometric,H37Rv (ATCC 27294),,96%
N#Cc1ccc(Nc2nc(Oc3cccc4cccnc34)nc(N3CCN(c4ccccc4F)CC3)n2)cc1C(F)(F)F,MIC99,,,agar,H37Rv,,25 µg/mL
Clc1cc(N2CCOCC2)nc2nc(N3CCOCC3)ccc12,EC50,,,BACTEC,H37Rv,,>6.25 µg/mL
C=C(C)C(=O)OC1CCC2(C)C(CCC3C2CCC2(C)C(c4ccc(=O)oc4)CC4OC432)C1,inhibition,12.5 µg/mL,,BACTEC,H37Rv,,87%
Cc1cc(C)c2c(=O)n(CN3CCN(C/C=C/c4ccccc4)CC3)sc2n1,EC50,,,BACTEC,H37Rv,,>12.5 µg/mL
Cc1ccc2[nH]c3nc4ccccc4nc3c2c1,inhibition,6.25 µg/mL,,resazurin,H37Rv,,45%
CC(=O)O[C@H]1C[C@@]2(C)[C@@H](C[C@@H](O)[C@H]3[C@@]4(C)CC[C@@H](O)[C@@H](C)[C@@H]4CC[C@@]32C)/C1=C(\CCC=C(C)C)C(=O)O,MIC90,,,,64 strains,,16 µg/mL
O=C(O)c1ccc(Nc2nnc(-c3ccncc3)s2)cc1O,MIC90,,,broth dilution,H37Rv,,>12.5 µg/mL
CSc1nc2n(Cc3cn(C)c(=O)n(C)c3=O)cc(C)cc-2c(=O)n1,inhibition,12.5 µg/mL,,BACTEC,H37Rv,,13%
CCCCCCc1ccc(Oc2ccccc2)c(O)c1,MIC99,,,,NHN382,,3.1 µg/mL
O=C(O)c1ccc(NC(=O)C(F)(F)F)cc1O,MIC90,,,broth dilution,H37Rv,,<12.5 µg/mL
Cc1cc(C23CC4CC(CC(C4)C2)C3)nc2ccccc12,MIC,,,,H37Rv,,>6.25 µg/mL
CCSN(SCC)C(=S)c1c(C#N)cc([N+](=O)[O-])cc1[N+](=O)[O-],MIC,,,,,,5.37 µg/mL
NC(=S)N/N=C\c1ccccc1,MIC,,,,H37Ra,,0.1 µg/mL
O=C(NNC(=O)c1ccc(Cl)cc1)c1ccc(Cl)cc1,MIC bound,,,BACTEC,H37Rv,,>12.5 µg/mL
N#Cc1ccc(Nc2nc(Oc3cccc4cccnc34)nc(N3CCN(Cc4ccccc4)CC3)n2)cc1C(F)(F)F,MIC,,,BACTEC,H37Rv,,>6.25 µg/mL
O=c1[nH]c2ccc(Cl)cc2c(-c2ccccc2)c1-[n+]1ccccc1,inhibition,6.25 µg/mL,,,H37Rv,,0%
C=CC(C)(C)C12CC3C(=O)N/C(=C\c4cnc[nH]4)C(=O)N3C1Nc1ccccc12,MIC bound,,,BACTEC,H37Rv,,>12.5 µg/mL
O=C(O)c1ccc(N2C(=O)CC(Nc3ccc(Oc4ccc(Cl)cc4)c(Cl)c3)C2=O)cc1,MIC,,,,H37Rv,,>200 µg/mL
Cc1cc2cc3c(=O)[nH]c(=O)cc-3n(CC(O)C(O)C(O)CO)c2cc1C,inhibition,12.5 µg/mL,,BACTEC,H37Rv,,91%
O=C1CC(Nc2ccc(Oc3ccc(Cl)cc3)c(Cl)c2)C(=O)N1c1ccccc1,MIC,,,,H37Rv,,>200 µg/mL
CCC1CC2CC3c4[nH]c5ccc(O)cc5c4CCN(C2)C13.Cl,MIC bound,,,BACTEC,H37Rv,,>12.5 µg/mL
Cc1cccnc1Nc1nc(-c2ccccn2)c(Br)s1,EC90,,,fluorescence,H37Rv,,<1 µM
O=C(O)c1cccc(N=Nc2c(S(=O)(=O)O)ccc3c2C(=O)c2ccccc2C3=O)c1O,inhibition,12.5 µg/mL,,BACTEC,H37Rv,,-2%
NC(=O)c1cnccn1,MIC90,,pH 6.0,resazurin,H37Rv,,>100 µM
CN(C)CCCNc1ccc(O)c2c1C(=O)c1ccccc1C2=O,MIC bound,,,BACTEC,H37Rv,,>12.5 µg/mL
CCSc1nnnn1-c1ccc(C)cc1,MIC,,,,H37Rv,,500 µM

8 of the rows above, restated:

| structure | read-out | dose | setting | method | strain | changes | value |
|---|---|---|---|---|---|---|---|
| Nc1c(-c2ccccc2)c2cc([N+](=O)[O-])ccc2[nH]c1=O | EC50 |  |  |  | H37Rv |  | >6.25 µg/mL |
| C=CC(C)(C)C12CC3C(=O)N/C(=C\c4cnc[nH]4)C(=O)N3C1Nc1ccccc12 | MIC bound |  |  | BACTEC | H37Rv |  | >12.5 µg/mL |
| Cc1ccnc(NS(=O)(=O)c2ccc(NC(=S)Nc3ccc(C(=O)O)c(O)c3)cc2)n1 | MIC90 |  |  | broth dilution | H37Rv |  | >12.5 µg/mL |
| CCN(CC)COc1ccc(N(c2cc(C)nc3cc(Cl)ccc23)S(=O)[O-])cc1 | MIC |  |  | agar | H37Rv |  | >50 µg/mL |
| Cc1cc(C)c2c(OCCCCN3CCN(c4ccccn4)CC3)nsc2n1 | inhibition | 12.5 µg/mL |  | BACTEC | H37Rv |  | 12% |
| CCSc1nnnn1-c1c(C)cc(C)cc1C | MIC |  |  |  | H37Rv |  | >1000 µM |
| CO[C@H]1/C=C/O[C@@]2(C)Oc3c(C)c(O)c4c(O)c(c(/C=N/N5CCN(C)CC5)c(O)c4c3C2=O)NC(=O)/C(C)=C\C=C\[C@H](C)[C@H](O)[C@@H](C)[C@@H](O)[C@@H](C)[C@H](OC(C)=O)[C@@H]1C | MIC90 |  |  | resazurin | H37Rv |  | 0.06 µM |
| O=C(CNc1ccc([N+](=O)[O-])cc1)Sc1nnc(-c2ccncc2)o1 | inhibition | 0.0052 µM |  | BACTEC / radiometric | H37Rv (ATCC 27294) |  | 96% |